From publication PMC7755911, “High affinity nanobodies block SARS-CoV-2 spike receptor binding domain interaction with human angiotensin converting enzyme” (2020)

Experiments:
[1] = biological target: SARS-CoV-2 RBD mutant V367F (SARS-CoV-2) (UniProt P0DTC2)
[2] = biological target: SARS-CoV-2 RBD mutant W436R (SARS-CoV-2) (UniProt P0DTC2)
[3] = biological target: SARS-CoV-2 RBD mutant N354D/D364Y (SARS-CoV-2) (UniProt P0DTC2); assay: ELISA

| Substance | EC50 [1] | EC50 [2] | EC50 [3] |
| --- | --- | --- | --- |
| NIH-CoVnb-112 | 1.11 nM | 1.11 nM |  |
| NIH-CoVnb-112 (VHH) |  |  | 1.11 nM |
